Test results taken from article doi:10.1101/2025.03.06.641775 (bioRxiv, 2025).

Legend:
[1] = target: T1, MtbSenX3-mClover, phosphorylated (M. tuberculosis, UniProt P9WGK5 67-410, phosphorylated state of the SK (residue number not given)); test: MST
T1 sequence: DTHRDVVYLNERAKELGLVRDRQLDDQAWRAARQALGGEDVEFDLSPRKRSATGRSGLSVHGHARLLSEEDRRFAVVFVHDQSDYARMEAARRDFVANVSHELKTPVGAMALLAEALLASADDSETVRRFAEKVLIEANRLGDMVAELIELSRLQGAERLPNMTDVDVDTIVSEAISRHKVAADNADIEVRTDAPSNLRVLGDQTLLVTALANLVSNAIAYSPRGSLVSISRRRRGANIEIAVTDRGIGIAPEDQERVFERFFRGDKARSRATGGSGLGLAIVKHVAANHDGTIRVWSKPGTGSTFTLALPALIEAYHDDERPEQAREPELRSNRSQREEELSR

[2] = target: T2, MtbSenX3-mClover, unphosphorylated (M. tuberculosis, UniProt P9WGK5 67-410); test: MST
T2 sequence: T1 sequence

B1: M. tuberculosis MutT1 (MtbMutT1), wild type (enzyme)
chain: not shown
**Q.** B1 was tested. Which Kd [1] did it give?
**A.** The Kd was 223 ± 98.2 nM.

**Q.** What about the Kd [2] of the same binder?
**A.** Its Kd is 425 ± 130 nM.
